# According to PubChem BioAssay AID488895 (Broad Institute, 2010):
# This is a selection; strong and weak results do not stand in their true shares. Calls of active or inactive are those of the source.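 How the source made its calls: active means mean replicate inhibition at least 50% and at least half of replicates individually reaching 50%; inconclusive means only one of the two criteria met; inactive means neither criterion met.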
# Experiment: E. coli Tat export inhibitors, primary screen, MC4100, TorA-mCherry reporter, fluorescence, single point (AID 488895);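 further: exported cargo escapes ClpAP degradation while cytoplasmic cargo is degraded and loses fluorescence; 0% = median of neutral control wells and 100% = median of NaSCN control wells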
# Details: at 10 µM, stronger effect = higher value
row,Structure (SMILES),inhibition
1,O=C(Nc1ccncc1[N+](=O)[O-])c1ccc([N+](=O)[O-])cc1[N+](=O)[O-],inactive: -8.98%
2,O=C(COc1ccccc1)OC1CN2CCC1CC2 (stereo not given),inactive: -5.98%
3,COP1(=S)c2c(C)nn(CCC#N)c2N=C(c2ccc(F)cc2)N1C (stereo not given),inactive: -1.46%
4,CCC(C)N(CC(C)C)C(=S)SC(NC(C)=O)C(Cl)(Cl)Cl (stereo not given),inactive: 2.49%
5,O=C(OC1CN2CCC1CC2)c1cccc([N+](=O)[O-])c1 (stereo not given),inactive: 2.35%
6,CCOC(=O)c1ccc(NC(=O)C(C)(CCl)SC)cc1 (stereo not given),inactive: 3.69%
7,Cc1cc(SC(NC(=O)c2ccccc2)C(Cl)(Cl)Cl)nc(C(C)C)n1 (stereo not given),inactive: -11%
8,CCCCOc1ccc(C(=O)NCC2(N3CCCCC3)CCCCC2)cc1OC,inactive: 16.2%
9,CCOC(=O)Nc1ccc([As](=O)(O)O)c(O)c1,inactive: -12.8%
10,CC1CCNP(=O)(N(CCCl)CCCl)O1 (stereo not given),inactive: 0.395%
11,Cc1cc(SC(NC=O)C(Cl)(Cl)Cl)ncn1 (stereo not given),inactive: -4.72%
12,O=P(Nc1ccccn1)(c1cccc2ccccc12)c1cccc2ccccc12,inactive: 1.16%
13,O=[N+]([O-])c1ccc(Nc2ccc(Oc3ccc([N+](=O)[O-])cc3[N+](=O)[O-])cc2)c([N+](=O)[O-])c1,inactive: -6.93%
14,CCOC(=O)Nc1cccc([As](=O)(O)O)c1,inactive: -5.65%
15,Cc1ccc(OP(=O)(Nc2ccc([N+](=O)[O-])cn2)Oc2ccc(C)cc2)cc1,inactive: 3.83%
16,Cc1ccc2nc3c(c(C)c2c1)CC(C(Cl)Cl)S3 (stereo not given),inactive: -3.98%
17,O=[N+]([O-])c1ccc(-c2cc([N+](=O)[O-])c(O)c([N+](=O)[O-])c2)cc1,inactive: -5.18%
18,COc1cc(C(=O)NCC2(N3CCOCC3)CCCCC2)ccc1OCC(C)C,inactive: 0.718%
19,O=[As](O)(c1ccc(O)cc1)c1ccccc1O,inactive: -2.54%
20,C[As](=O)(O)c1cccc(C(=O)O)c1,inactive: -6.48%
21,O=[N+]([O-])c1cc([N+](=O)[O-])c(-c2ccn[nH]2)s1,inactive: -5.53%
22,CC(C)NC(=O)NP(=O)(Oc1ccccc1)Oc1ccccc1,inactive: -3.76%
23,O=C(OC1CN2CCC1CC2)c1cccc2[nH]cnc12 (stereo not given),inactive: 5.4%
24,CCN(CC)C(=S)SC(NC=O)C(Cl)(Cl)Cl (stereo not given),inactive: -17.5%
25,ClCCSc1nnc(-c2cccnc2)o1,inactive: 0.731%

row,Structure (SMILES),inhibition
1,COC(=O)C1(C)COP(=O)(N2CCCCCC2)OC1 (stereo not given),inactive: -1.72%
2,CC(C)c1ccc(OP(=O)(Nc2ccccn2)Oc2ccccc2F)cc1 (stereo not given),inactive: 2.22%
3,O=P1(N(CCCl)CCCl)Nc2ccccc2N1,inactive: -5.96%
4,O=P1(N(CCCl)CCCl)OCCCN1CCCl (stereo not given),inactive: -2.04%
5,COc1cc(I)ccc1[As](=O)(O)O,inactive: -0.0135%
6,COc1ccc2nc(NP(=O)(c3ccccc3)c3ccccc3)sc2c1,inactive: 0.391%
7,Cc1c2c(nc3ccccc13)SC(C(Cl)Cl)C2 (stereo not given),inactive: -4.52%
8,Cc1cc(=O)[nH]c(N[N+](=O)[O-])n1,inactive: -0.735%
9,O=C(OC1CN2CCC1CC2)C12CC3CC(CC(C3)C1)C2 (stereo not given),inactive: 2.78%
10,O=[N+]([O-])c1cc(Oc2ccc([N+](=O)[O-])cc2C(F)(F)F)cc([N+](=O)[O-])c1,inactive: -2.85%
11,COc1ccc(N/C(=N/P(=O)(N2CCOCC2)N2CCOCC2)N2CCOCC2)cc1,inactive: 4.02%
12,Cc1cccc(OCC(=O)OC2CN3CCC2CC3)c1 (stereo not given),inactive: -8.98%
13,O=[As](O)(c1cccc(O)c1)c1cccc(O)c1,inactive: -1.22%
14,O=C(OC1CN2CCC1CC2)c1ccc(Cl)cc1 (stereo not given),inactive: -4.64%
15,CS(=O)(=O)c1ccc(Cl)c(NC(=O)COC(=O)C(O)(c2ccccc2)c2ccccc2)c1,inactive: -1.18%
16,O=[As](O)(O)c1cccnc1,inactive: 25.8%
17,COc1cc(C(=O)NCC2(N3CCOCC3)CCCCC2)cc(Cl)c1OC(C)C,inactive: -1.54%
18,CCOP(=O)(Nc1cccc2ccccc12)OCC,inactive: 3%
19,COc1cc(C2NCCC3(OCCO3)C2(C)C)cc(OC)c1OC (stereo not given),inactive: 12.7%
20,Nc1cccc2c([As](=O)(O)O)cccc12,inactive: -16.8%
21,Cc1ccc(NCCc2c([N+](=O)[O-])cc([N+](=O)[O-])cc2[N+](=O)[O-])cc1,inactive: 0.0805%
22,CCCOP(=S)(Nc1nc(N)cc(=O)[nH]1)OCCC,inactive: -4.82%
23,O=C(O)COc1ccc([As](=O)(O)O)cc1[N+](=O)[O-],inactive: 1.17%
24,Nc1ccccc1[As](=O)(O)c1ccccc1,inactive: -4.82%
25,O=P(Nc1nccs1)(Oc1ccccc1)Oc1ccccc1,inactive: -5.4%

row,Structure (SMILES),inhibition
1,O=P(Nc1nccs1)(c1ccccc1)c1nc2ccccc2s1 (stereo not given),inactive: -5.7%
2,CCOP1(=S)c2c(C)nn(CCC#N)c2N=C(c2ccccc2F)N1C (stereo not given),inactive: 3.49%
3,CS(=O)(=O)c1cc([N+](=O)[O-])c2no[n+]([O-])c2c1,inactive: -13.7%
4,CCOP1(=S)c2c(C)nn(CCC#N)c2N=C(c2ccc(F)cc2)N1C (stereo not given),inactive: -1.99%
5,CN(C(=O)Cc1ccccc1)[C@@H]1CC[C@]2(CCCO2)C[C@H]1N1CCCC1,inactive: -10.2%
6,N#CCCN(C(=O)COC(=O)C(O)(c1ccccc1)c1ccccc1)c1ccc(F)cc1,inactive: -3.72%
7,CN(C(=O)Cc1ccc(Cl)c(Cl)c1)[C@H]1CC[C@@]2(CCCO2)C[C@@H]1N1CCCC1,inactive: -3.05%
8,O=[N+]([O-])c1ccc2c(c1)nnn2O,inactive: -1.57%
9,CN(C)C(=O)c1cc([N+](=O)[O-])cc2c1-c1c(cc([N+](=O)[O-])cc1[N+](=O)[O-])C2=O,inactive: -5.42%
10,NC(=O)Nc1ccc([As](=O)(O)O)cc1,inactive: 1.33%
11,CN(C)C1(CNC(=O)c2ccc(S(C)(=O)=O)cc2)CCCCC1,inactive: -1.23%
12,CCCC1OP(=O)(Nc2ccccc2)OCC1CC (stereo not given),inactive: 0.483%
13,O=C(/C=C/c1ccccc1)OC1CN2CCC1CC2 (stereo not given),inactive: 18.6%
14,Cc1ccc(C(=O)OC2CN3CCC2CC3)cc1 (stereo not given),inactive: 2.55%
15,CC1CCC(C(C)C)C(OP(=O)(Nc2ccccn2)c2ccccc2)C1 (stereo not given),inactive: 13.4%
16,Cc1nn(-c2ccccc2)c2c1P(=O)(N1CCOCC1)N(C)C(c1ccccc1)=N2 (stereo not given),inactive: -3.07%
17,Nc1cccc([As](=O)(O)c2ccccc2)c1,inactive: -1.75%
18,O=[As](O)(c1cccs1)c1cccs1,inactive: -3.53%
19,Cc1ccc(OCC(=O)OC2CN3CCC2CC3)cc1 (stereo not given),inactive: -6.04%
20,NS(=O)(=O)c1cccc(NC(=O)COC(=O)C(O)(c2ccccc2)c2ccccc2)c1,inactive: 6.37%
21,O=P1(Nc2ccc(Br)cn2)COc2ccccc2OC1,inactive: 0.0286%
22,O=P1(Nc2ncccn2)COc2ccccc2OC1,inactive: -8.62%
23,CC(C)(C)C(=O)NC(Sc1ncccn1)C(Cl)(Cl)Cl (stereo not given),inactive: -6.22%
24,Clc1n[nH]nc1-c1nn[nH][15n]1,inactive: -5.89%
25,CCOP(=O)(NC(=NC(C)c1ccccc1)NC(C)c1ccccc1)OCC (stereo not given),inactive: 1.29%

row,Structure (SMILES),inhibition
1,CCC1=CC2Cc3nc4ccc(Cl)cc4c(N)c3C(C1)C2 (stereo not given),inactive: 7.77%
2,O=P1(Nc2ccccn2)COc2ccccc2OC1,inactive: 4.76%
3,CCOP(=O)(Nc1ccc(C)cn1)OCC,inactive: 4.51%
4,CN(C(=O)Cc1ccc(Cl)c(Cl)c1)[C@@H]1CCCC[C@H]1N1CCCC1,inactive: -3.64%
5,CC(C)/C=N\N=C(\N)N[N+](=O)[O-],inactive: 8.62%
6,CC1(CBr)Cn2c(nc3ccccc3c2=O)S1 (stereo not given),inactive: 0.389%
7,COc1ccccc1CNC(=O)COC(=O)C(O)(c1ccccc1)c1ccccc1,inactive: -2.54%
8,c1nnnn1CCn1cnnn1,inactive: 12.4%
9,O=P(Nc1nccs1)(c1ccccc1)c1ccccc1,inactive: -2.49%
10,CC(C)C(=O)NC(Sc1ccccc1)C(Cl)(Cl)Cl (stereo not given),inactive: 10.1%
11,C[C@H]1OP(=O)(Oc2ccccc2)[C@H](O)[C@H](O)[C@H]1N=[N+]=[N-] (stereo not given in full),inactive: -4.98%
12,O=P(Nc1nc2ccccc2s1)(c1ccccc1)c1ccccc1,inactive: 4.03%
13,CN(C)C1(CNC(=O)c2ccc(Cl)c(S(N)(=O)=O)c2)CCCCC1,inactive: 8.88%
14,O=P(Nc1ccccn1)(c1ccc(Br)cc1)c1ccc(Br)cc1,inactive: 3.42%
15,COc1ccc(N)c([N+](=O)[O-])c1[N+](=O)[O-],inactive: -2.69%
16,O=C(OC1CN2CCC1CC2)c1cccc(Cl)c1 (stereo not given),inactive: -4.2%
17,C(Cc1nn[nH]n1)Cc1nn[nH]n1,inactive: -8.37%
18,Nc1ccc([As](=O)(O)c2ccc([N+](=O)[O-])cc2)cc1,inactive: 7.59%
19,O=[As](O)(c1ccccc1)c1ccc(O)cc1,inactive: 1.15%
20,O=[N+]([O-])c1ncn(CCn2cnc([N+](=O)[O-])n2)n1,inactive: -4.56%
21,CC(=O)NC(SC(=S)N(C)C)C(Cl)(Cl)Cl (stereo not given),inactive: -14.3%
22,O=[N+]([O-])c1ccc(O)c(/C=N/Nc2ccc([N+](=O)[O-])cc2[N+](=O)[O-])c1,inactive: -1%
23,O=P1(N(CCCl)CCCl)OCCC2CCCCN21 (stereo not given),inactive: 8.96%
24,Cc1ccc(NP(=O)(Oc2cccc(C)c2)Oc2cccc(C)c2)nc1,inactive: -6.7%
25,c1ccc(-c2nn[nH]n2)c(-c2nn[nH]n2)c1,inactive: -6.5%
